Amino acid sequences for entries named in this document (tags omitted). A change or cut given only in a name is not applied to a line headed by its entry.
UniProt P10242: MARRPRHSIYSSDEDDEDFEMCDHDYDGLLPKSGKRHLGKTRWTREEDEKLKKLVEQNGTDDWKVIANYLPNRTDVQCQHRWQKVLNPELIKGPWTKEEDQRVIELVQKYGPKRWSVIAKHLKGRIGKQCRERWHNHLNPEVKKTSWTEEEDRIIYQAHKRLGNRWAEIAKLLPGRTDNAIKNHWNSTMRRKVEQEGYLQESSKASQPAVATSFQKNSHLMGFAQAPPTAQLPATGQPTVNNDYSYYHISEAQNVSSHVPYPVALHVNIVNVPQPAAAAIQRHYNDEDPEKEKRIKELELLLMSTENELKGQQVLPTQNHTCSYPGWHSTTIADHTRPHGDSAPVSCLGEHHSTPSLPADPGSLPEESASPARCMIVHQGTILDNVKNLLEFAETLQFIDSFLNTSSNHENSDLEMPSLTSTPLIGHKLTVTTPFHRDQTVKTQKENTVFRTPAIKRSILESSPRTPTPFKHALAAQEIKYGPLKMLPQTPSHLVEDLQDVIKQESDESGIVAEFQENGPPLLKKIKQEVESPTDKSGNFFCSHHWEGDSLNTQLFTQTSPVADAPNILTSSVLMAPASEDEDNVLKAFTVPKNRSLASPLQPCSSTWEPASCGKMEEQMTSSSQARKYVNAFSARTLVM

In article PMC2647524:

Target: c-Myb (UniProt P10242)
Assay: EMSA supershift
Details: anti-c-Myb antibody supershifts, PC10 antibody does not, specific by competition with 100-fold unlabeled probe; protein in an extract

Sequence: TCGAGAAAGGTCAACTGTCTCACACAAAC / TCGAGTTTGTGTGAGACAGTTGACCTTTC [HTLV-4 LTR c-Myb site probe]
- binding result: binds

Construct, isoform or probe ends are uncertain for at least one entry. Where cells or extracts were used, other partners may take part.
